pIC50: −log10 of the molar value.
Target: SARS-CoV-2 M^pro (Severe acute respiratory syndrome coronavirus 2, UniProt P0DTD1)
Test: SPE-MS M^pro inhibition assay, 37mer peptide substrate
Type: biochemical
Settings: Table 4; M^pro 0.15 μM, 37mer substrate 2.0 μM; mean ± SD, n ≥ 2

Structure (SMILES)	pIC50
CC1(C)S[C@H]2N(C(=O)C2(Br)Br)[C@H]1C(=O)O	< 4.30
CC1(C)S[C@H]2N(C(=O)C2(Br)Br)[C@H]1C(=O)OCc1ccc([N+](=O)[O-])cc1	< 4.30
